# Results of single-concentration screens

From ChEMBL document CHEMBL3988442, “University of Dundee, Small-Polar-MMV Screening Library” (2021).

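Phenotypic screen: M. tuberculosis growth, glucose 7H9 medium, 3 days; the read-out is not stated. Tested at 500 µM. Higher reads as more growth inhibition (inferred: compounds with an IC50 in retests scored well above the rest). About 18,000 compounds were tested under these conditions; 7.9% (about 1,400) showed 50% or more at least once.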

Each number is a percent effect as filed. How 0% and 100% were set is not recorded. Most values in the screen are low, and negative values occur. Many other results are left out here, so strong results are more common than in the screen.

With CCc1ccsc1C(=O)NCCCN1CCN(C)CC1 the screen gave 22.64%.
With O=c1cc(CSCCO)c2ccccc2[nH]1 the screen gave -6.629%.
With CCNC(=O)CN1CCCC(CC)(CO)C1 (stereo not given) the screen gave -7.605%.
With CCN1CCN(CCS(=O)(=O)c2ccccc2)CC1 the screen gave 13.8%.
With COc1ccc2nc(SCN3CCCCC3=O)[nH]c2c1 the screen gave 36.16%.
With CCn1c(C)nnc1SCC(=O)Nc1nccs1 the screen gave -4.281%.
With Nc1nnc(SCc2cn3ccccc3n2)s1 the screen gave -0.8762%.
With CC(C)c1ccccc1OCC(O)CN(C)CCO (stereo not given) the screen gave 79.84%.
With CC(C)COc1cncc(NC(C)CO)n1 (stereo not given) the screen gave 73.26%.
With CC(N)c1noc(-c2ccc(Cl)cc2)n1 (stereo not given) the screen gave 75.25%.
With NC(=O)c1ccccc1C(F)(F)F the screen gave 5.944%.
With NC(=O)c1ccc2c(c1)CCCN2 the screen gave 22.9%.
With O=S1(=O)CCCC1CNC1CCSCC1 (stereo not given) the screen gave -1.823%.
With CC(=O)c1ccc(CN)nc1C the screen gave -5.48%.
With CC(=O)Nc1nc(CCN)cs1 the screen gave 18.23%.
With CCNC(=O)C1CC(=O)N(C2CCCCC2)C1 (stereo not given) the screen gave 7.779%.
With CN(Cc1cccnc1)C(=O)c1cc(Cl)c[nH]1 the screen gave 57.22%.
With CCS(=O)(=O)NCc1ccccc1F the screen gave 17.3%.
With COCc1cccc(S(=O)(=O)N2CC[C@H](N)C2)c1 the screen gave 12.64%.
With CN(CC(=O)NCCC#N)Cc1nc2ccccc2s1 the screen gave 18.32%.
With O=C(Nc1ccc2cn[nH]c2c1)N[C@@H]1CNCC[C@H]1O the screen gave 21.14%.
With OCC1CCN(Cc2cc(F)cc3cccnc23)CC1 the screen gave -1.086%.
With CC(=O)c1cc(C(=O)NCc2cn3c(n2)SCC3)cs1 the screen gave 14.95%.
With COc1ccc(NC(=O)C(C)(C)N(C)C)cc1 the screen gave -5.611%.
With CC(C)n1ccnc1CN(C)CC(C)(C)S(C)(=O)=O the screen gave 5.938%.
With CCN(CC)CCCC1CCN(S(N)(=O)=O)CC1 the screen gave 4.563%.
With CCc1cc(C)c(C(=O)NC2CNC[C@@H]2OC)o1 (stereo not given in full) the screen gave 16.65%.
With CC(=O)NCCNC(=O)c1cc2c(F)cccc2s1 the screen gave 10.34%.
With CC(C(=O)NCc1ccnc(N(C)C)c1)S(C)(=O)=O (stereo not given) the screen gave 16.2%.
With Cc1ccc(S(=O)(=O)N2CCOc3ccncc32)cc1 the screen gave 56.84%.
With CN(Cc1ccc(N)nc1)c1ccc(C#N)cn1 the screen gave 51.84%.
With Cc1[nH]c(=O)[nH]c(=O)c1CCC(=O)Nc1ccn(C)n1 the screen gave -7.893%.
With COCCNC(=O)c1cn(-c2cccc(Br)c2)nn1 the screen gave 12.98%.
With COc1cccc(F)c1C(C)N (stereo not given) the screen gave 6.185%.
With CC(C)(C)OC(=O)N1CCOC(CN)C1 (stereo not given) the screen gave 9.725%.
With CCC(CC)C(=O)NCc1ccncc1 the screen gave 26.96%.
With CCS(=O)(=O)NC1CCN(c2cc(Br)ccn2)CC1 the screen gave 63.36%.
With O=S1(=O)CCC(n2cnc(I)n2)C1 (stereo not given) the screen gave 1.101%.
With CN(CCC(N)=O)Cc1ccc(Br)o1 the screen gave 18.41%.
With O=C(NCC1COCCO1)c1cnc2ccccc2c1 (stereo not given) the screen gave 50.44%.
With CNC(C)c1cccnc1 (stereo not given) the screen gave 7.834%.
With CNCC(=O)Nc1cccc2ccccc12 the screen gave 23.16%.
With CCN(CC)C(=O)Cn1nc(C)c(C#N)c1N the screen gave 2.624%.
With O=C(CSc1ccc(F)cc1)N1CCC1 the screen gave 58.22%.
With COC(=O)C(C)(C)CNC(=O)c1cc(C#N)c[nH]1 the screen gave 1.933%.
With CN(C)[C@@H]1CN(C(=O)c2nccn2C)C[C@H]1CO the screen gave -11.3%.
With NC(=O)COC(=O)c1cccnc1-n1cncn1 the screen gave -0.06953%.
With CCC1C(=O)NCCN1CCCOC (stereo not given) the screen gave -10.4%.
With Cc1ccc(C)c(C(=O)N2C[C@@H](CO)[C@H](N(C)C)C2)c1 the screen gave 5.915%.
With CC(C)COCC(O)CNc1nnc(C(C)C)s1 (stereo not given) the screen gave 66.3%.
With CC1(O)CCN(C(=O)NC(C)(C)C)C1 (stereo not given) the screen gave 6.286%.
With CC(=O)NCCNC(=O)N1CCc2sccc2C1 the screen gave 9.811%.

Some entries from above, unchanged:

{"structure": "CC(=O)Nc1nc(CCN)cs1", "effect": 18.23}
{"structure": "COC(=O)C(C)(C)CNC(=O)c1cc(C#N)c[nH]1", "effect": 1.933}
{"structure": "CC(C)COc1cncc(NC(C)CO)n1", "stereo": "stereo not given", "effect": 73.26}
{"structure": "CCS(=O)(=O)NCc1ccccc1F", "effect": 17.3}